Source: PubChem BioAssay AID1259414 (Drosophila RNAi Screening Center, 2018)
In all, the deposit lists about 24,000 reagents; shown is an unselected part of those with a known target gene and a result. Over the whole deposit, about 1,210 (5%) were called active. 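Inactive calls also include excluded dsRNAs with several or no targets, genes unexpressed in JW18, and well A1, regardless of score.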 A plus sign joins genes that one reagent is predicted to hit.

Aim: 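Genome-wide screen for host control of endosymbiont load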 (primary screen)
System: Drosophila JW18 cells infected with Wolbachia
Reagents: long dsRNA against Drosophila genes, 0.25 µg dsRNA per well of a 384-well plate
Duration: 5 days
Treatment: cells persistently infected with Wolbachia before knock-down; no added drug
Detection: 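Imaged fluorescence in situ signal for Wolbachia 23S rRNA per DAPI-counted host cell, given as a robust z-score within each plate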
Reading the numbers: Wolbachia per cell robust z: higher = more Wolbachia per host cell than the plate typical
Call rule: 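Hit when robust z is 1.5 or more, or -1.5 or less, in at least two of three replicates; excludes dsRNAs with several or no targets, genes not expressed in JW18 and well A1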

no.	predicted target	amplicon	Wolbachia per cell robust z, rep 1	Wolbachia per cell robust z, rep 2	Wolbachia per cell robust z, rep 3	Call
1	CG14635	DRSC17945	-1.11	-1.26	0.368	inactive
2	CG14635	DRSC29724	-1.44	0.172	-0.543	inactive
3	mei-P26	DRSC23049	-2.35	0.0835	0.594	inactive
4	mRpL54	DRSC04545	0.476	0.162	0.381	inactive
5	CG33626	DRSC37839	-2.18	-0.835	0.321	inactive
6	CG13675	DRSC23124	-3.02	0.809	3	inactive
7	CG32182	DRSC09508	-8.82	0.055	0.341	inactive
8	CG32182	DRSC24583	-1.7	-0.576	-1.12	inactive
9	CG34461	DRSC10767	-0.458	-0.928	0.261	inactive
10	CNT1	DRSC06082	-0.529	-2.33	-0.0889	inactive
11	CNT1	DRSC29671	0.302	-0.0107	-0.0482	inactive
12	CG1701	DRSC06641	-0.0704	0.0111	0.0789	inactive
13	Dap160	DRSC03313	-5.07	-0.11	0.538	inactive
14	Dap160	DRSC27467	0.23	0.68	-0.0204	inactive
15	CSN5	DRSC16592	1.13	0.978	-0.626	inactive
16	CSN5	DRSC22381	-1.25	0.668	1.02	inactive
17	CSN5	DRSC27904	0.456	0.519	1.21	inactive
18	regucalcin	DRSC20366	0.818	-1.11	0.142	inactive
19	regucalcin	DRSC25592	-1.74	-0.0912	-0.82	inactive
20	jub	DRSC19367	0.5	1.82	0.722	inactive
21	jub	DRSC26225	0.848	-0.0337	0.205	inactive
22	Mst98Cb	DRSC16750	-2.36	0.476	0.646	inactive
23	Mst98Cb	DRSC22495	-0.0211	0.253	0.127	inactive
24	Mst98Cb	DRSC25707	-0.53	0.59	0.205	inactive
25	CG15767	DRSC18073	0.0825	0.355	0.713	inactive
26	CG15767	DRSC29131	0.523	-0.0927	-0.978	inactive
27	cbc	DRSC06957	0.587	-0.198	0.82	inactive
28	CG34292	DRSC38810	-0.692	-0.0739	-0.511	inactive
29	CG42493	DRSC40609	-2.21	-1.26	-1.75	inactive
30	CG34211	DRSC41337	-1.07	0.308	0.561	inactive
31	ball	DRSC14145	-0.119	1.42	1.46	inactive
32	ball	DRSC26607	-0.161	0.882	-0.227	inactive
33	CG9664	DRSC00725	-1.19	-3.95	0.45	inactive
34	snoRNA:660 + Act57B	DRSC23472	1.01	-1.82	0.948	inactive
35	Acyp	DRSC01861	-0.744	0.00453	0.3	inactive
36	Acyp	DRSC41388	-0.202	-2.5	-0.139	inactive
37	CG11768 + Nasp + CG34135	DRSC23219	0.055	0.0291	-0.366	inactive
38	CG14232 + CG14230	DRSC29188	-0.719	-0.103	0.0678	inactive
39	Nipsnap	DRSC20169	-0.212	0.198	0.897	inactive
40	lncRNA:CR32690	DRSC22219	0.481	0.444	0.387	inactive
41	lncRNA:CR32690	DRSC27561	-0.446	-0.85	-0.233	inactive
42	Tsp33B	DRSC02418	0.468	1.04	-1.15	inactive
43	Tsp33B	DRSC28982	0.405	0.0656	-0.216	inactive
44	Idi	DRSC15918	-0.651	-8.71	0.376	inactive
45	mld	DRSC13681	-0.651	-0.000127	0.725	inactive
46	mld	DRSC14622	0.18	-0.64	-0.599	inactive
47	mld	DRSC23427	0.276	-3.32	-0.71	inactive
48	CG11980	DRSC14456	-4.07	0.149	0.636	inactive
49	CG11634	DRSC03700	-0.498	-4.69	0.411	inactive
50	CG33332	DRSC15504	-0.857	-0.704	0.533	inactive
51	CG33332	DRSC27661	0.635	-1.27	0.314	inactive
52	CG13252	DRSC11700	0.276	-0.516	0.39	inactive
53	CG13252	DRSC27577	0.835	-0.194	0.587	inactive
54	Roc2	DRSC07313	-0.203	0.237	-0.129	inactive
55	Roc2	DRSC27174	-0.937	0.298	0.233	inactive
56	CG6739	DRSC02987	-1.83	-0.0785	0.288	inactive

Reprinted from the listing (13 entries):
no.	predicted target	amplicon	Wolbachia per cell robust z, rep 1	Wolbachia per cell robust z, rep 2	Wolbachia per cell robust z, rep 3	Call
36	Acyp	DRSC41388	-0.202	-2.5	-0.139	inactive
37	CG11768 + Nasp + CG34135	DRSC23219	0.055	0.0291	-0.366	inactive
38	CG14232 + CG14230	DRSC29188	-0.719	-0.103	0.0678	inactive
39	Nipsnap	DRSC20169	-0.212	0.198	0.897	inactive
40	lncRNA:CR32690	DRSC22219	0.481	0.444	0.387	inactive
41	lncRNA:CR32690	DRSC27561	-0.446	-0.85	-0.233	inactive
42	Tsp33B	DRSC02418	0.468	1.04	-1.15	inactive
43	Tsp33B	DRSC28982	0.405	0.0656	-0.216	inactive
44	Idi	DRSC15918	-0.651	-8.71	0.376	inactive
45	mld	DRSC13681	-0.651	-0.000127	0.725	inactive
46	mld	DRSC14622	0.18	-0.64	-0.599	inactive
47	mld	DRSC23427	0.276	-3.32	-0.71	inactive
48	CG11980	DRSC14456	-4.07	0.149	0.636	inactive

Further results:
no.	predicted target	amplicon	Wolbachia per cell robust z, rep 1	Wolbachia per cell robust z, rep 2	Wolbachia per cell robust z, rep 3	Call
57	Kdm4A	DRSC06586	-1.29	0.0807	-1.71	inactive
58	Kdm4A	DRSC29611	-0.411	-6.85	-7.34	active
59	Acsx1R + Acsx1L	DRSC24222	0.318	-3.33	-0.599	inactive
60	CG43351	DRSC41436	-0.262	-0.102	0.297	inactive
61	GckIII	DRSC15729	-0.978	-0.269	-0.585	inactive
62	Cyp313a4	DRSC16627	0.815	-0.43	0.31	inactive
63	Rfk	DRSC15454	0.614	0.267	0.179	inactive
64	Rfk	DRSC29260	-0.391	-1.27	1.78	inactive
65	zormin	DRSC07969	-1.19	-1.76	-0.773	inactive
66	zormin	DRSC08210	0.807	1.2	0.444	inactive
67	zormin	DRSC08212	0.0933	-0.552	0.513	inactive
68	zormin	DRSC08213	0.709	0.389	0.711	inactive
69	zormin	DRSC08297	-0.297	0.313	0.532	inactive
70	zormin	DRSC22483	-0.984	0.176	0.862	inactive
71	CG34338	DRSC38801	0.688	0.254	0.719	inactive
72	CG42392	DRSC40618	-0.805	-0.99	0.288	inactive
73	Jhbp11	DRSC15183	0.477	0.303	0.627	inactive
74	Jhbp11	DRSC29679	0.51	-0.615	-0.164	inactive
75	CG6106	DRSC19971	-0.0657	-0.179	1.2	inactive
76	CG6106	DRSC29276	-1.12	0.289	-0.878	inactive
77	dachs	DRSC01026	0.827	-2.84	0.685	inactive
78	dachs	DRSC02072	0.345	1.13	1.93	inactive
79	dachs	DRSC02191	-0.323	-0.196	-2.62	inactive
80	dachs	DRSC26121	-1.12	-0.179	-0.814	inactive
81	dachs	DRSC28403	-0.0631	0.944	0.264	inactive
82	Nlg3	DRSC12524	-5.67	0.84	1.25	inactive
83	Nlg3	DRSC12540	0.742	-8.87	0.027	inactive
84	Nlg3	DRSC12574	0.85	0.489	1.25	inactive
85	Nlg3	DRSC25678	0.14	-0.0581	-0.15	inactive
86	CG34207	DRSC38739	-7.07	-2.79	0.00133	inactive
87	chas	DRSC19508	0.426	0.163	0.608	inactive
88	chas	DRSC19509	-0.925	-2.59	-5.38	active
89	chas	DRSC29130	-2.49	-0.871	-1.47	inactive
